# Experimental data taken from patent US20210070843A1.
# Molecular target: full-length H5 A/Vietnam/1203/2004 HA expressed on 293T cells (influenza A virus A/Vietnam/1203/2004 (H5N1))
# Test: flow cytometry, HA-expressing 293T
row,Molecule,EC50
1,FI6V3 (antibody),0.61 µg/mL
2,"P04 (antibody, V domains shown) VH: EVQLVESGGGLVQPGGSLRLSCAASGFTINSWSIHWVRQAPGKGLEWVASIWPFGGFTFYADSVKGRFTISADTSKNTAYLQMNSLRAEDTAVYYCARGYSSFGDYWGQGTLVTVSS VL: DIQMTQSPSSLSASVGDRVTITCRASQDVNGSVAWYQQKPGKAPKLLISSSASLYSGVPSRFSGSGSGTDFTLTISSLQPEDFATYYCQQGWSYPLTFGQGTKVEIKR",3.26 µg/mL
3,"P37 (antibody, V domains shown) VH: EVQLVESGGGLVQPGGSLRLSCAASGFTFNSWGIHWVRQAPGKGLEWVAGIWPYWGFTYYADSVKGRFTISADTSKNTAYLQMNSLRAEDTAVYYCARFHGSSYYSVMDYWGQGTLVTVSS VL: DIQMTQSPSSLSASVGDRVTITCRASQDVGNDVAWYQQKPGKAPKLLISSARGLYSGVPSRFSGSGSGTDFTLTISSLQPEDFATYYCQQYYNFPITFGQGTKVEIKR",1.18 µg/mL
4,"P12 (antibody, V domains shown) VH: EVQLVESGGGLVQPGGSLRLSCAASGFTIGDYYIHWVRQAPGKGLEWVAGIGPSWGSTSYADSVKGRFTISADTSKNTAYLQMNSLRAEDTAVYYCARFYNNHWGFMDYWGQGTLVTVSS VL: DIQMTQSPSSLSASVGDRVTITCRASQDVGYWVAWYQQKPGKAPKLLIYWTSGLYSGVPSRFSGSGSGTDFTLTISSLQPEDFATYYCQQYSNWPITFGQGTKVEIKR",6.54 µg/mL
5,"P11 (antibody, V domains shown) VH: EVQLVESGGGLVQPGGSLRLSCAASGFTISSFWIHWVRQAPGKGLEWVAGIGPFWGSTFYADSVKGRFTISADTSKNTAYLQMNSLRAEDTAVYYCARFNDWFYHGMDYWGQGTLVTVSS VL: DIQMTQSPSSLSASVGDRVTITCRASQDVDNNVAWYQQKPGKAPKLLISYASWLYSGVPSRFSGSGSGTDFTLTISSLQPEDFATYYCQQSSGGPVTFGQGTKVEIKR",2.42 µg/mL
6,"F10 (antibody, V domains shown) VH: QVQLVQSGAEVKKPGSSVKVSCTSSEVTFSSFAISWVRQAPGQGLEWLGGISPMFGTPNYAQKFQGRVTITADQSTRTAYMDLRSLRSEDTAVYYCARSPSYICSGGTCVFDHWGQGTLVTVSA VL: IQPGLTQPPSVSKGLRQTATLTCTGNSNNVGNQGAAWLQQHQGHPPKLLSYRNNDRPSGISERFSASRSGNTASLTITGLQPEDEADYYCSTWDSSLSAVVFGGGTKLTVLG",0.59 µg/mL
7,"P26 (antibody, V domains shown) VH: EVQLVESGGGLVQPGGSLRLSCAASGFTIDNSWIHWVRQAPGKGLEWVASIGPYWGYTSYADSVKGRFTISADTSKNTAYLQMNSLRAEDTAVYYCARFVFFLPYAMDYWGQGTLVTVSS VL: DIQMTQSPSSLSASVGDRVTITCRASQDVWSGVAWYQQKPGKAPKLLIYGTTYLYSGVPSRFSGSGSGTDFTLTISSLQPEDFATYYCQQYYSFLLTFGQGTKVEIKR",0.65 µg/mL
8,"P01 (antibody, V domains shown) VH: EVQLVESGGGLVQPGGSLRLSCAASGFTIGDGSIHWVRQAPGKGLEWVAWIGPYGGSTFYADSVKGRFTISADTSKNTAYLQMNSLRAEDTAVYYCARFFWGINMDYWGQGTLVTVSS VL: DIQMTQSPSSLSASVGDRVTITCRASQDVGWYVAWYQQKPGKAPKLLIYGSTFLYSGVPSRFSGSGSGTDFTLTISSLQPEDFATYYCQQYYDSPLTFGQGTKVEIKR",5.94 µg/mL
9,"P05 (antibody, V domains shown) VH: EVQLVESGGGLVQPGGSLRLSCAASGFTINDYGIHWVRQAPGKGLEWVAGIWPYWGFTFYADSVKGRFTISADTSKNTAYLQMNSLRAEDTAVYYCARFHGSSYYSVMDYWGQGTLVTVSS VL: DIQMTQSPSSLSASVGDRVTITCRASQDVGSSVAWYQQKPGKAPKLLISSSPYLYSGVPSRFSGSGSGTDFTLTISSLQPEDFATYYCQQYYDYPLTFGQGTKVEIKR",0.19 µg/mL
10,"P06 (antibody, V domains shown) VH: EVQLVESGGGLVQPGGSLRLSCAASGFTIGGYWIHWVRQAPGKGLEWVAGIGPYWGSTYYADSVKGRFTISADTSKNTAYLQMNSLRAEDTAVYYCARFNNWFWNVMDYWGQGTLVTVSS VL: DIQMTQSPSSLSASVGDRVTITCRASQDVGGGVAWYQQKPGKAPKLLISGTSGLYSGVPSRFSGSGSGTDFTLTISSLQPEDFATYYCQQSSNFPITFGQGTKVEIKR",0.26 µg/mL

# Molecular target: recombinant H7N9 AH/13 HA trimer (hemagglutinin ectodomain of A/Anhui/1-BALF_RG17/2013) (influenza A virus A/Anhui/1-BALF_RG17/2013 (H7N9))
# Test: ELISA, coated HA
row,Molecule,EC50
1,"CR8020 (antibody, V domains shown) VH: EVQLQQSGAEVKTPGASVKVSCKASGYTFTSFGVSWIRQAPGQGLEWIGWISAYNGDTYYAQKFQARVTMTTDTSTTTAYMEMRSLRSDDTAVYYCAREPPLFYSSWSLDNWGQGTLVTVSS VL: EIVMTQSPGTLSLSPGERATLSCRASQSVSMNYLAWFQQKPGQAPRLLIYGASRRATGIPDRISGSGSGTDFTLTISRLEPADFAVYYCQQYGTSPRTFGQGAKVEIKR",0.069 µg/mL
